Results deposited as PubChem BioAssay AID1259414 (Drosophila RNAi Screening Center, 2018)
The screen tested about 24,000 reagents; below is an unselected part of those with a known target gene and a result. Over the whole deposit, about 1,210 (5%) were called active. 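Inactive calls also include excluded dsRNAs with several or no targets, genes unexpressed in JW18, and well A1, regardless of score.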 A number with no mark means an inactive call. A plus sign joins genes that one reagent is predicted to hit.

Test: 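Genome-wide screen for host control of endosymbiont load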 (primary screen)
Cells: Drosophila JW18 cells infected with Wolbachia
Reagent: long dsRNA against Drosophila genes, 0.25 µg dsRNA per well of a 384-well plate
Time to read-out: 5 days
Challenge: cells persistently infected with Wolbachia before knock-down; no added drug
Measured: 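Automated imaging of bacterial rRNA staining divided by host cell count, reported as plate-normalised robust z-score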
Scale: Wolbachia per cell robust z: higher = more Wolbachia per host cell than the plate typical
Call rule: 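Hit when robust z is 1.5 or more, or -1.5 or less, in at least two of three replicates; excludes dsRNAs with several or no targets, genes not expressed in JW18 and well A1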

Gene,dsRNA,"Wolbachia per cell robust z, rep 1","Wolbachia per cell robust z, rep 2","Wolbachia per cell robust z, rep 3"
CG14411,DRSC19597,-2.42,-1.21,-0.0102
CG14411,DRSC29396,0.777,0.2,0.713
CG14411,DRSC41419,0.81,-0.892,1.57
CG13474,DRSC10018,0.713,2.93,1.76
ppk5,DRSC11492,1.04,-0.79,0.793
CG6138,DRSC02933,0.0995,-0.605,-0.531
Ote,DRSC07498,-0.925,-0.256,-0.0738
dikar,DRSC09699,-0.52,-3.14,1.26
dikar,DRSC22261,-1.11,-0.486,0.108
dikar,DRSC26562,-0.166,-1.46,-1.59
FipoQ,DRSC15413,0.875,1.01,1.17
FipoQ,DRSC24515,0.0723,-0.786,-0.878
Tsen15,DRSC41324,0.311,-0.616,-0.646
CG33235,DRSC19641,0.169,-1.85,-0.565
CG13043,DRSC09924,0.758,-0.466,-3.01
CG13043,DRSC25440,0.454,1.66,1.77
twin,DRSC15259,0.229,1.95,-0.947
twin,DRSC15831,-5.46,-0.744,1.02
twin,DRSC21363,0.438,0.722,-1.47
twin,DRSC29620,0.146,0.312,-0.896
NaPi-III,DRSC10893,-0.261,-2.12,-0.408
NaPi-III,DRSC22953,0.337,-0.103,1.15
NaPi-III,DRSC28299,-1.36,-0.331,0.194
NaPi-III,DRSC28977,0.697,-0.151,-3.56
CG33493,DRSC10642,0.163,-1.3,-0.159
CG33493,DRSC25546,0.764,1.16,0.972
dmGlut,DRSC02835,-3.46 (active),-0.0995,-11.5
dmGlut,DRSC25891,-0.557,-0.313,-1.89
CG2915,DRSC06842,0.0239,0.672,1.03
Cpr65Ec,DRSC11025,-0.156,-1.42,-1.25
Cpr65Ec,DRSC24191,-0.415,-1.29,-1.47
CG7992,DRSC20070,0.916,0.814,0.776
TwdlU,DRSC12224,-0.225,-1.42,-0.872
TwdlU,DRSC29063,0.139,-2.87,0.105
Cyp12e1,DRSC16622,0.516,0.146,0.449
Cyp12e1,DRSC41511,0.467,-0.167,0.497
CG17717,DRSC18130,0.235,0.391,-0.213
TMEM216 + CG11760,DRSC14375,-0.63,0.155,-0.112
Buffy,DRSC05957,-0.975,-0.0242,-0.225
VhaM9.7-a,DRSC08289,-1.07,-0.226,-1.45
VhaM9.7-a,DRSC28340,-1.79,-0.959,-1.67
temp,DRSC18271,-0.987,0.199,-0.0573
Kcmf1,DRSC14459,0.64,0.639,0.932
Kcmf1,DRSC26004,-1.06,-0.179,-1.22
CenG1A,DRSC02538,0.354,0.462,0.199
CenG1A,DRSC03505,0.239,-0.455,1.3
CenG1A,DRSC03506,0.439,1.37,1.52
CenG1A,DRSC28029,0.436,-0.278,-1.57
CG34201,DRSC38628,-0.902,-0.533,-1.26
Caf1-105,DRSC06209,-0.253,0.406,-1.17
p115,DRSC18813,-0.489,-1.31,-0.185
Prosap,DRSC06382,-0.762,0.972,-0.995
Prosap,DRSC07081,0.55,-0.153,-0.251
Ptp99A,DRSC13939,-0.956,0.781,1.02
Ptp99A,DRSC14319,0.346,-0.0344,-0.158
Ptp99A,DRSC14320,-1.16,-0.437,0.797
Ptp99A,DRSC16803,0.358,-0.206,-0.404
Ptp99A,DRSC22125,-0.809,0.82,1
Ptp99A,DRSC22477,0.104,0.0854,0.191
Ptp99A,DRSC23033,-0.00459,-1.81,-0.679
CG5079,DRSC23061,-0.235,0.886,0.868
Ilp5,DRSC08998,-1.24,-3.36,-0.559
CG2875,DRSC18231,-2.96 (active),0.874,-4
porin,DRSC03594,0.475,0.441,-1.25
porin,DRSC27826,0.426,0.478,-0.704
Syt14,DRSC12331,0.222,-1.93,0.000571
tgy,DRSC20045,0.336,-1.02,-2.31
CG10510,DRSC11614,-2.44,-0.125,-0.792

5 entries from above, showing only “Wolbachia per cell robust z, rep 1”.
Prosap [DRSC06382]	-0.762
Prosap [DRSC07081]	0.55
Ptp99A [DRSC13939]	-0.956
Ptp99A [DRSC14319]	0.346
Ptp99A [DRSC14320]	-1.16
